Pooled drug test results. Numbers come from NIAID ChemDB, via PubChem.

All rows: growth or infection tests; organism: HIV-1; cells: MT-4; read-out: EC50

a–b is a range or a potency band.

structure | strain or isolate | setting | mutations | method | result
Cc1cc(C#N)cc(C)c1Oc1nc(NC2CCC(NCc3cccc(C(F)(F)F)c3)CC2)nc2ccsc12 | IIIB |  | NNRTI-resistant (RT K103N) | MTT | >707 µM
CC(C)CN(C[C@@H](O)[C@H](Cc1ccccc1)NC(=O)O[C@H]1CO[C@H]2OCC[C@H]21)S(=O)(=O)c1ccc(-c2csc(N)n2)cc1 |  |  | PR-L010F M046I M071V I084V | cytopathic effect / MTT | 0.273 µM
CCOCn1c(Cc2ccccc2)c(C(C)C)c(=O)[nH]c1=O | IIIB |  |  | cytopathic effect / MTT | 0.02 µM
CCNc1c(N=Nc2ccc(-c3ccc(OC)c(OC)c3)cc2)c(N)nc(=O)n1C | IIIB |  |  | MTT | >23.13 µM
CCOCn1c(Cc2cccc(Cc3[nH]c(=O)[nH]c(=O)c3CC)c2)c(CC)c(=O)[nH]c1=O | RT-K103N+Y181C NNRTI-resistant |  | RT-K103N Y181C | cytopathic effect / MTT | >100 µM
Nc1ncnc2c1ncn2[C@@H]1O[C@H](CO)C[C@@H]1N | IIIB |  |  | cytopathic effect / trypan blue | >500 µg/mL
CCOC(=O)C(CC)C(=O)Cc1cccc(Cc2[nH]c(=O)c(CC)c(O)c2CC)c1 | RT-K103N+Y181C NNRTI-resistant |  | RT-K103N Y181C | cytopathic effect / MTT | >100 µM
Nc1ccn(CCN2C(=O)CSC2COCc2ccccc2)c(=O)n1 |  |  |  | cytopathic effect | ≥100 µM
COC(=O)N[C@H](C(=O)N[C@@H](Cc1ccccc1)C[C@H](O)[C@H](Cc1ccc(-c2ccncc2)cc1)NC[C@@H](NC(=O)OC)C(C)(C)C)C(C)(C)C | pNL4-3 |  |  | MTT | 13 nM
CC(C)CN(C[C@@H](O)[C@H](Cc1ccccc1)NC(=O)O[C@H]1CO[C@H]2OCC[C@H]21)S(=O)(=O)c1ccc(N)c(NCCNC(=O)OC(C)(C)C)c1 | IIIB WT |  |  | GFP | 0.0145 µM
CC(C)[C@H](NC(=O)OCc1ccccc1)C(=O)NC(Sc1ccccc1)C(O)C(NC(=O)[C@@H](NC(=O)OCc1ccccc1)C(C)C)Sc1ccccc1 | LAV |  |  | syncytia | 10 µM
C/C=C1/C(=O)NC(=O)N1[C@H]1C[C@H](N=[N+]=[N-])[C@@H](CO)O1 | IIIB |  |  | ELISA | >10 µM
Cc1ccnc(NC(=S)NCCc2c(F)cccc2F)c1 | IIIB |  |  | cytopathic effect / MTT | 0.026 µg/mL
COC(=O)N[C@H](C(=O)N[C@@H](Cc1ccccc1)C[C@H](O)[C@H](Cc1ccc(-c2cncnc2)cc1)NC[C@@H](NC(=O)OC)C(C)(C)C)C(C)(C)C | pNL4-3 |  |  | MTT | 2 nM
CCNc1nc(-c2ccc(S(=O)(=O)N(CC(C)C)C[C@@H](O)[C@H](Cc3ccccc3)NC(=O)COc3c(C)cccc3C)cc2)cs1 | LAI |  |  | cytopathic effect / MTT | 5.012 µM
CC(C)CN(C[C@@H](O)[C@H](Cc1ccccc1)NC(=O)O[C@H]1CO[C@H]2OCC[C@H]21)S(=O)(=O)c1ccc(N)c(NCc2ccco2)c1 | IIIB WT |  |  | GFP | 0.00166 µM
Nc1nc2c(ncn2[C@H]2CS[C@@H](CO)O2)c(=O)[nH]1 |  |  |  |  | >100 µg/mL
[N-]=[N+]=N[C@H]1C[C@H](N2C(=O)NC(=O)/C2=C/c2ccccc2)O[C@@H]1CO | IIIB |  |  | ELISA | >100 µM
CCc1c(Cc2cccc(Cc3nc(N(C)C)[nH]c(=O)c3CC)c2)nc(N(C)C)[nH]c1=O | NNRTI-resistant |  | RT-Y181C | cytopathic effect / MTT | >100 µM
CC(C)CN(C[C@@H](O)[C@H](Cc1ccccc1)NC(=O)O[C@H]1CO[C@H]2OCC[C@H]21)S(=O)(=O)c1ccc(N)c(NCc2ccccn2)c1 | IIIB WT |  |  | GFP | 0.00891 µM
COc1ccc(-c2ccc(N=Nc3c(N)nc(=O)n(C)c3N(C)C)cc2)cc1OC | IIIB |  |  | MTT | >10.42 µM
NC[C@@H]1C[C@@H](N)[C@H](n2cnc3c(N)ncnc32)O1 | IIIB |  |  | cytopathic effect / trypan blue | >500 µg/mL
CC(C)[C@H](NC(=O)c1cccnc1)C(=O)N(Cc1ccccc1)CC(O)C(Sc1ccccc1)N(Cc1ccccc1)C(=O)[C@@H](NC(=O)c1cccnc1)C(C)C | LAV |  |  | syncytia | 1 µM
Fc1cccc(NC(=S)NCCc2c(F)cccc2F)n1 | IIIB |  |  | cytopathic effect / MTT | 0.0029 µg/mL
COc1ccccc1Nc1nc(-c2ccc(S(=O)(=O)N(CC(C)C)C[C@@H](O)[C@H](Cc3ccccc3)NC(=O)COc3c(C)cc(Br)cc3C)cc2)cs1 | LAI |  |  | cytopathic effect / MTT | 100 µM
Nc1nc(=O)n([C@H]2CO[C@@H](CO)S2)cc1F |  |  |  |  | 2.5 µg/mL
CNC(=O)c1cccc(-c2ccc(C[C@H](NC[C@@H](NC(=O)OC)C(C)(C)C)[C@@H](O)C[C@H](Cc3ccccc3)NC(=O)[C@@H](NC(=O)OC)C(C)(C)C)cc2)c1 | pNL4-3 | 50% human serum |  | MTT | 842 nM
Cc1cc(NC(=S)NCCc2c(F)cccc2F)ncc1Br | IIIB |  |  | cytopathic effect / MTT | 0.019 µg/mL
C=CCNc1c(N=Nc2ccc(-c3ccc(F)cc3)cc2)c(N)nc(=O)n1C | IIIB |  |  | MTT | >10.42 µM
CCOC(=O)c1ccc(CN2CCC(Nc3nc(Oc4c(C)cc(/C=C/C#N)cc4C)c4sccc4n3)CC2)cc1 | IIIB |  | NNRTI-resistant (RT Y181C) | MTT | 0.0329 µM
Nc1ncnc2c1ncn2[C@H]1C[C@H](N)[C@@H](CO)O1 | IIIB |  |  | cytopathic effect / trypan blue | >100 µg/mL
COc1ccc(CN(CC(O)C(Sc2ccccc2)N(Cc2ccc(OC)cc2)C(=O)N(C)c2ccccc2)C(=O)N(C)c2ccccc2)cc1 | LAV |  |  | syncytia | 0.1–1 µM
CCN(C(=O)C(=O)N(C)C)C1CN(C)CCn2c1nc(C(=O)NCc1ccc(F)cc1)c(O)c2=O |  |  |  | p24 | <1 µM
Cc1cc(/C=C/C#N)cc(C)c1Oc1nc(NC2CCN(Cc3cccc(Cl)c3)CC2)nc2ccsc12 | IIIB |  | NNRTI-resistant (RT L100I) | MTT | 0.03 µM
Nc1ccn([C@H]2CO[C@@H](CO)S2)c(=O)n1 |  |  |  |  | >10 µg/mL
CC(C)CN(C[C@@H](O)[C@H](Cc1ccccc1)NC(=O)O[C@H]1CO[C@H]2OCC[C@H]21)S(=O)(=O)c1ccc(N)c(NCCc2cncn2CC2CCCCC2)c1 | IIIB WT |  |  | GFP | 0.0813 µM
CN(C)c1c(N=Nc2ccc(Cl)cc2)c(N)nc(=O)n1C | IIIB |  |  | MTT | >28.24 µM
NC[C@@H]1C[C@@H](O)[C@H](n2cnc3c(N)ncnc32)O1 | IIIB |  |  | cytopathic effect / trypan blue | >500 µg/mL
CCNc1c(N=Nc2ccc(Cl)cc2)c(N)nc(=O)n1C | IIIB |  |  | MTT | >36.72 µM
C#CCOCn1c(C(=C)c2ccccc2)c(CC)c(=O)[nH]c1=O | IIIB |  |  | cytopathic effect / MTT | 1.5 µM
COC(=O)N[C@H](C(=O)N[C@@H](Cc1ccccc1)C[C@H](O)[C@H](Cc1ccc(-c2ccc(O)cc2)cc1)NC[C@@H](NC(=O)OC)C(C)(C)C)C(C)(C)C | pNL4-3 | 50% human serum |  | MTT | 71 nM
COc1ccc(CN(CC(O)C(Sc2ccccc2)N(Cc2ccc(OC)cc2)C(=O)OCC(C)C)C(=O)OCC(C)C)cc1 | LAV |  |  | syncytia | 10 µM
CN(C)CC(=O)N1CCn2c(nc(C(=O)NCc3ccc(F)cc3)c(O)c2=O)C1(C)C |  |  |  | p24 | <1 µM
CCNc1nc(-c2ccc(S(=O)(=O)N(CC(C)C)C[C@@H](O)[C@H](Cc3ccccc3)NC(=O)COc3c(C)cc(Br)cc3C)cc2)cs1 | LAI |  |  | cytopathic effect / MTT | 25.1 µM
Cc1ccc(NC(=S)NCCc2c(F)cccc2F)nc1 | IIIB |  |  | cytopathic effect / MTT | 0.0011 µg/mL
CC(C)[C@H](NC(=O)OC(C)(C)C)C(=O)N(Cc1ccccc1)CC(O)C(Sc1ccccc1)N(Cc1ccccc1)C(=O)[C@@H](NC(=O)OC(C)(C)C)C(C)C | LAV |  |  | syncytia | 1 µM
CCc1c(Cc2cccc(Cc3nc(SC(C)CC)[nH]c(=O)c3CC)c2)nc(SC(C)CC)[nH]c1=O | NNRTI-resistant |  | RT-Y181C | cytopathic effect / MTT | >27 µM
Cn1c(N(Cc2ccccc2)Cc2ccccc2)c(N=Nc2ccc(Cl)cc2)c(N)nc1=O | IIIB |  |  | MTT | >78.59 µM
Cc1cn([C@H]2C=C[C@@H](CP(=O)(O)O)O2)c(=O)[nH]c1=O | IIIB |  |  | cytopathic effect | >128 µg/mL
CCOC(=O)CCc1nc(-c2ccc(S(=O)(=O)N(CC(C)C)C[C@@H](O)[C@H](Cc3ccccc3)NC(=O)O[C@H]3CO[C@H]4OCC[C@H]43)cc2)co1 |  |  | PR-L010F M046I M071V I084V | cytopathic effect / MTT | 0.6 µM
Cc1nc(NC(=S)NCCc2c(F)cccc2F)ccc1Br | IIIB |  |  | cytopathic effect / MTT | 0.002 µg/mL
COC(=O)N[C@H](C(=O)N[C@@H](Cc1ccccc1)C[C@H](O)[C@H](Cc1ccc(-c2ccccc2)cc1)NC[C@@H](NC(=O)OC)C(C)(C)C)C(C)(C)C | pNL4-3 |  |  | MTT | 4 nM
Cc1cc(/C=C/C#N)cc(C)c1Oc1nc(NC2CCN(Cc3cccc(C(N)=O)c3)CC2)nc2ccsc12 | IIIB |  | NNRTI-resistant (RT F227L V106A) | MTT | 0.00789 µM
COC(=O)N[C@H](C(=O)N[C@@H](Cc1ccccc1)C[C@H](O)[C@H](Cc1ccc(-c2ccc(C#N)nc2)cc1)NC[C@@H](NC(=O)OC)C(C)(C)C)C(C)(C)C | pNL4-3 |  |  | MTT | 6 nM
Cc1cc(Br)cc(C)c1OCC(=O)N[C@@H](Cc1ccccc1)[C@H](O)CN(CC(C)C)S(=O)(=O)c1ccc(-c2csc(Nc3ccc(Cl)c(Cl)c3)n2)cc1 | LAI |  |  | cytopathic effect / MTT | 100 µM
C#CCOCn1c(C(=C)c2cc(C)cc(C)c2)c(CC)c(=O)[nH]c1=O | IIIB |  | RT-Y181C | cytopathic effect / MTT | 17 µM
CC(C)CNc1cc(S(=O)(=O)N(CC(C)C)C[C@@H](O)[C@H](Cc2ccccc2)NC(=O)O[C@H]2CO[C@H]3OCC[C@H]32)ccc1N | IIIB WT |  |  | GFP | 0.00562 µM
Cc1ccc(CNC(=O)c2nc3n(c(=O)c2O)CCNCC3N(C)C(=O)C(=O)N(C)C)cc1Cl |  |  |  | p24 | <1 µM
CCc1c(Cc2cccc(Cc3nc(SC(C)C)[nH]c(=O)c3CC)c2)nc(SC(C)C)nc1OC(C)C |  |  |  | cytopathic effect / MTT | >43 µM
CN(C)C(=O)C(=O)N(C)C1CN(Cc2ccccc2)CCn2c1nc(C(=O)NCc1ccc(F)cc1)c(O)c2=O |  |  |  | p24 | <1 µM
CC(C)[C@H](NC(=O)c1ccc2ccccc2n1)C(=O)N(Cc1ccccc1)CC(O)C(Sc1ccccc1)N(Cc1ccccc1)C(=O)[C@@H](NC(=O)c1ccc2ccccc2n1)C(C)C | LAV |  |  | syncytia | 10 µM
Cc1cc(/C=C/C#N)cc(C)c1Oc1nc(NC2CCN(Cc3ccc([N+](=O)[O-])cc3)CC2)nc2ccsc12 | IIIB |  | NNRTI-resistant (RT K103N) | MTT | 0.00966 µM
CCc1c(Cc2cccc(Cc3[nH]c(=O)[nH]c(=O)c3CC)c2)[nH]c(=O)[nH]c1=O | RT-K103N+Y181C NNRTI-resistant |  | RT-K103N Y181C | cytopathic effect / MTT | >100 µM
Cc1c(Cc2c(F)cccc2F)nc(NN2CCC(C)CC2)[nH]c1=O | NL4-3 |  |  | MTT | 0.1 µM
Cc1cc(C#N)cc(C)c1Oc1nc(NC2CCN(Cc3ccc(S(N)(=O)=O)cc3)CC2F)nc2ccsc12 | IIIB |  | NNRTI-resistant (RT Y181C) | MTT | 0.03 µM
Cn1c(Cl)c(N=Nc2ccc(Cl)cc2)c(N)nc1=O | IIIB |  |  | MTT | >2.15 µM
CCc1c(Cc2cccc(Cc3nc(SC)[nH]c(=O)c3CC)c2)nc(SC)[nH]c1=O | RT-K103N+Y181C NNRTI-resistant |  | RT-K103N Y181C | cytopathic effect / MTT | >100 µM
Cn1c(-c2ccc(F)cc2)cc(N)nc1=O | IIIB |  |  | MTT | >19.35 µM
O=c1ccn([C@@H]2CO[C@@H](CO)S2)c(=O)[nH]1 |  |  |  |  | >100 µg/mL
CN(C)C(=O)C(=O)N(C)C1CN(CCc2ccccc2)CCn2c1nc(C(=O)NCc1ccc(F)cc1)c(O)c2=O |  |  |  | p24 | <1 µM
CC(C)CN(C[C@@H](O)[C@H](Cc1ccccc1)NC(=O)O[C@H]1CO[C@H]2OCC[C@H]21)S(=O)(=O)c1ccc(N)c(NCCc2cnc[nH]2)c1 | IIIB WT |  |  | GFP | 0.851 µM
C=C(c1cc(C)cc(C)c1)c1c(CC)c(=O)[nH]c(=O)n1COCC=C(C)C | IIIB |  |  | cytopathic effect / MTT | 0.15 µM

Rows are shuffled and stem from different studies. Blank or dashed fields: not listed here. ECn: concentration that inhibits the pathogen or its effect by n%.